Measured values from several laboratories, pooled; numbers as filed in NIAID ChemDB.

Shared fields: toxicity to cultured cells; cell line: CEM; read-out: CC50

Blank or dashed fields: not listed here. CCn is the concentration with n% toxicity to the cells. Rows are shuffled and stem from different studies.

SMILES,read by,result
COC(=O)[C@H]1NC(=O)[C@H]2NC(=O)[C@H](NC(=O)[C@@H]3NC(=O)[C@H]4NC(=O)[C@H](NC(=O)[C@H](N)c5ccc(O)c(c5)Oc5cc4cc(O)c5C)[C@H](O)c4ccc(cc4)Oc4cc3cc(c4O)Oc3ccc(cc3)[C@H]2O[C@@H]2C[C@@H](N)[C@@H](O)[C@H](C)O2)c2ccc(O)c(c2)-c2c(O)cc(O)cc21,cell count,>100 µM
CCC(C)NC(=O)C(C)OC(=O)c1c2c(nc3ccccc13)/C(=C\c1cccs1)CCC2,propidium iodide,2 µM
CCCCCCCCCCCCCCCC(=O)OCC(NC(C)=O)C(OCC)OCC,trypan blue,>100 µM
Nc1ncnc2c1ncn2C/C=C\CN1C(=O)c2ccccc2C1=O,cell count,>50 µM
COc1ccc(C(=O)C2=NS(=O)(=O)c3cc(C)c(Cl)cc3S2)cc1,XTT,>1000 µM
CC(C)CN(C[C@@H](O)[C@H](Cc1ccccc1)NC(=O)CN1C(=O)c2ccccc2C1=O)S(=O)(=O)c1ccc(Br)cc1,MTT,>100 µM
Cc1ccc(C)c(C(CCCCCCBr)S(=O)(=O)c2cccc[n+]2[O-])c1,cell count,6.7 µg/mL
N#CC1(c2ccc(OCc3ccccc3)cc2)CCC(=O)N1Cc1ccccc1,absorbance,7 µM
Cc1ccc(C(C)S(=O)c2cccc[n+]2[O-])c(Cl)c1,cell count,0.28 µg/mL
N[C@H](C(=O)O)c1cc(O)cc(O)c1-c1cc([C@H]2NC(=O)[C@@H]3NC(=O)[C@H]4NC(=O)[C@@H](Cc5ccc(c(Cl)c5)Oc5cc3cc(c5O)Oc3ccc(cc3Cl)[C@@H](O)[C@@H](C(=O)O)NC2=O)NC(=O)[C@H](N)c2ccc(O)c(c2)Oc2cc(O)cc4c2)ccc1O,cell count,>250 µM
Cc1occc1C(=S)Nc1ccc(Cl)c(SCC(=O)OC(C)(C)C)c1,,7 µg/mL
CC(C)=CCCC1(C)C=Cc2c(ccc3c2C(=O)C(=O)C(C2=C(I)C(=O)c4ccccc4C2=O)=C3O)O1,MTT,4.3 µM
Nc1nc2c(ncn2CCOCP(=O)(O)O)c(=O)[nH]1,neutral red,2.4 µM
Cc1ccc(C)c(CS(=O)(=O)c2cccc(Cl)[n+]2[O-])c1,cell count,4 µg/mL
Nc1ncnc2c1ncn2C/C=C/CN1C(=O)c2ccccc2C1=O,cell count,>50 µM
CC(=O)ONc1ccc(S(=O)(=O)N(CC(C)C)C[C@@H](O)[C@H](Cc2ccccc2)NC(=O)[C@H](C)N2C(=O)c3ccccc3C2=O)cc1,MTT,>100 µM
CCOc1ccc(C2(C#N)CC(=O)N2Cc2ccccc2)cc1,absorbance,29.4 µM
COC1=C(C2=C(Cl)C(=O)c3ccccc3C2=O)C(=O)c2ccc3c(c2C1=O)C=C[C@@](C)(CCC=C(C)C)O3,MTT,5.4 µM
Cc1csc(C(=O)/C=C/c2cc3cc(C)ccc3nc2Cl)c1,MTS,≥100 µM
Cc1ccc(C)c(C(Cl)S(=O)(=O)c2c(Cl)ccc[n+]2[O-])c1,cell count,15 µg/mL
O=C1Nc2ccc(Cl)cc2[C@@](C#CC2CC2)(C(F)(F)F)O1,MTT / absorbance,>50 µM
CC1(C)C=Cc2c(ccc3c2C(=O)C(=O)C(C2=C(I)C(=O)c4ccccc4C2=O)=C3O)O1,MTT,6.8 µM
Cc1ccc(N2C(=O)CCC2(C#N)c2ccc(OCc3ccccc3)cc2)cc1,absorbance,30.3 µM
CN[C@H](CC(C)C)C(=O)N[C@H]1C(=O)N[C@@H](CC(N)=O)C(=O)N[C@H]2C(=O)N[C@H]3C(=O)N[C@H](C(=O)N[C@H](C(=O)O)c4cc(O)cc(O)c4-c4cc3ccc4O)[C@H](O)c3ccc(c(Cl)c3)Oc3cc2cc(c3O[C@@H]2O[C@H](CO)[C@@H](O)[C@H](O)[C@H]2O[C@H]2C[C@](C)(N)[C@H](O)[C@H](C)O2)Oc2ccc(cc2Cl)[C@H]1O,cell count,>500 µM
COc1nc(F)nc2c1ncn2[C@H]1C[C@H](N=[N+]=[N-])[C@@H](CO)O1,MTS,>100 µM
CCCCCCCCCCNCc1c(O)cc2c(c1O)-c1cc(ccc1O)[C@H]1NC(=O)[C@@H]3NC(=O)[C@H](CC(N)=O)NC(=O)[C@H](NC(=O)[C@@H](CC(C)C)NC)[C@H](O)c4ccc(c(Cl)c4)Oc4cc3cc(c4OC3O[C@H](CO)[C@@H](O)[C@H](O)[C@H]3O[C@H]3C[C@](C)(N)[C@@H](O)[C@H](C)O3)Oc3ccc(cc3)[C@@H](O[C@H]3C[C@](C)(N)[C@@H](O)[C@H](C)O3)[C@H](NC1=O)C(=O)N[C@@H]2C(=O)O,cell count,24 µM
C=C(C)[C@@H]1CC[C@]2(C(=O)NCCCCCCCNC(=O)CC(=O)O)CC[C@]3(C)[C@H](CC[C@@H]4[C@@]5(C)CC[C@H](O)C(C)(C)[C@@H]5CC[C@]43C)[C@@H]12,,>3 µM
CC(c1ccccc1)S(=O)c1cccc[n+]1[O-],cell count,1.4 µg/mL
COc1ccc2nc(Cl)c(/C=C/C(=O)c3sccc3Br)cc2c1,MTS,8.3 µM
NC(N)=NC(=O)c1ccc(N2CCCCCC2)nc1,fluorescence,162 µM
CCNC(=O)NC(=O)C(C)OC(=O)c1c2c(nc3ccccc13)/C(=C\c1cccc([N+](=O)[O-])c1)CCC2,propidium iodide,16 µM
C=CCC(c1cc(C)ccc1C)S(=O)(=O)c1cccc[n+]1[O-],cell count,38 µg/mL
CC(C)(C)[Si](C)(C)OC[C@H]1O[C@@H](n2ccc(=O)[nH]c2=O)[C@H](O[Si](C)(C)C(C)(C)C)[C@@]12O[C@H]2C(=O)NO,propidium iodide / flow cytometry,4.5 µM
Clc1ccc(CSc2ccccn2)cc1,cell count,1.2 µg/mL
Cc1ccc2nc(Cl)c(/C=C/C(=O)c3cc(Cl)sc3Cl)cc2c1,MTS,11.9 µM
Cc1ccc(C)c(CS(=O)(=O)c2ccc(Cl)c[n+]2[O-])c1,cell count,4.9 µg/mL
CC(C)(C)[Si](C)(C)OC[C@H]1O[C@@H](n2ccc(=O)[nH]c2=O)[C@H](O[Si](C)(C)C(C)(C)C)/C1=C/CO,propidium iodide / flow cytometry,24 µM
O=C1c2ccccc2C(=O)N1C/C=C/Cn1cc(C(F)(F)F)c(=O)[nH]c1=O,cell count,>50 µM
Cc1cc2c(cc1Cl)SC(C(=O)c1ccc(Cl)c(Cl)c1)=NS2(=O)=O,XTT,143 µM
O=C1c2ccccc2C(=O)N1CC1OC1CBr,cell count,9.2 µM
[N-]=[N+]=N[C@H]1C[C@H](CO)O[C@@H]1n1cc(F)c(N)nc1=O,trypan blue,>100 µM
CCCCCCCCCCCCCC(=O)OCC(N)C(=O)O,trypan blue,100 µM
C/C(=N\NC(=O)CN1c2c(-c3ccccc3)n[nH]c2-c2ccccc2S1(=O)=O)c1sccc1C,MTS,13.1 µM
O=C(CCC(CCC(=O)N[C@H](Cc1c[nH]c2ccccc12)C(=O)O)(CCC(=O)N[C@H](Cc1c[nH]c2ccccc12)C(=O)O)NC(=O)c1cc(C(=O)NC(CCC(=O)N[C@H](Cc2c[nH]c3ccccc23)C(=O)O)(CCC(=O)N[C@H](Cc2c[nH]c3ccccc23)C(=O)O)CCC(=O)N[C@H](Cc2c[nH]c3ccccc23)C(=O)O)cc(C(=O)NC(CCC(=O)N[C@H](Cc2c[nH]c3ccccc23)C(=O)O)(CCC(=O)N[C@H](Cc2c[nH]c3ccccc23)C(=O)O)CCC(=O)N[C@H](Cc2c[nH]c3ccccc23)C(=O)O)c1)N[C@H](Cc1c[nH]c2ccccc12)C(=O)O,visual reading,56 µM
CC(C)CN(C[C@@H](O)[C@H](Cc1ccccc1)NC(=O)[C@H](C)N1C(=O)c2ccccc2C1=O)S(=O)(=O)c1ccc(Br)cc1,MTT,>100 µM
CC(C)=CCC[C@]1(C)C=Cc2c(ccc3c2C(=O)C(O)=C(C2=C(C4=C(O)C(=O)c5c(ccc6c5C=C[C@@](C)(CCC=C(C)C)O6)C4=O)C(=O)c4c(ccc5c4C=C[C@@](C)(CCC=C(C)C)O5)C2=O)C3=O)O1,MTT,22 µM
Cc1ccc(NC(C#N)c2ccccc2OCc2ccccc2)cc1,absorbance,3.8 µM
CC(=O)ONc1ccc(S(=O)(=O)N(Cc2ccccc2)C[C@@H](O)[C@H](Cc2ccccc2)NC(=O)CCN2C(=O)c3ccccc3C2=O)cc1,MTT,>100 µM
O=C(COC(=O)c1c2c(nc3ccccc13)/C(=C\c1cccs1)CCC2)NC1CC1,propidium iodide,17 µM
CCCCCCCC(Sc1cccc[n+]1[O-])c1cc(C)c(C)c(C)c1,cell count,20 µg/mL
CC1(C)C=Cc2c(ccc3c2C(=O)C(=O)C(C2=C(Cl)C(=O)c4ccccc4C2=O)=C3O)O1,MTT,5.5 µM
Cc1ccc(N2C(=O)CCC2(CN)c2ccccc2OCc2ccccc2)cc1,absorbance,47.9 µM
C/C(=N\NC(=O)CN1c2c(-c3ccccc3)n[nH]c2-c2ccccc2S1(=O)=O)c1nccs1,MTS,8.2 µM
COC1=C(C2=C(Br)C(=O)c3ccccc3C2=O)C(=O)c2ccccc2C1=O,MTT,5.4 µM
NCC1(c2ccccc2)CCC(=O)N1Cc1ccccc1,absorbance,>100 µM
O=S(Cc1ccccc1)c1cccc[n+]1[O-],cell count,20 µg/mL
N[C@@H]1Cc2ccc(c(Cl)c2)Oc2cc3cc(c2O)Oc2ccc(cc2Cl)[C@@H](O)[C@@H]2NC(=O)[C@H](NC(=O)[C@@H]3NC(=O)C(c3cc(O)cc(Oc4cc(C5NC(=S)N(c6ccccc6)C5=O)ccc4O)c3)NC1=O)c1ccc(O)c(c1)-c1c(O)cc(O)cc1[C@@H](C(=O)O)NC2=O,cell count,>250 µM
Cc1ccc(C)c(CSc2ncccc2O)c1,cell count,39 µg/mL
CNc1nc(Cl)nc2c1ncn2[C@H]1C[C@H](N=[N+]=[N-])[C@@H](CO)O1,MTS,>100 µM
COC1=C(C2=C(Cl)C(=O)c3ccccc3C2=O)C(=O)c2ccc(OC)cc2C1=O,MTT,2.9 µM
CCOC(=O)CC1(O)[C@@H](CO[Si](C)(C)C(C)(C)C)O[C@@H](n2ccc(=O)[nH]c2=O)[C@@H]1O[Si](C)(C)C(C)(C)C,propidium iodide / flow cytometry,25 µM
C/C(=N\NC(=O)CN1c2c(-c3ccccc3)n[nH]c2-c2ccccc2S1(=O)=O)c1ccc(Br)s1,MTS,<1 µM
O=C(C1=NS(=O)(=O)c2ccc(Cl)cc2S1)c1ccc(Cl)c(Cl)c1,XTT,124 µM
Cc1ccc2nc(Cl)c(/C=C/C(=O)c3cc4ccccc4o3)cc2c1,MTS,5.5 µM
C/C(=N\NC(=O)CN1c2c(-c3ccccc3)n[nH]c2-c2ccccc2S1(=O)=O)c1cccs1,MTS,23.3 µM
Cc1ccc(C)c(C(Cl)S(=O)(=O)c2cc(C)cc[n+]2[O-])c1,cell count,>100 µg/mL
Cc1ccoc1C(=S)Nc1ccc(Cl)c(/C=N/OC(C)C)c1,,3.1 µg/mL
Cc1cc2c(cc1Cl)SC(C(=O)c1cccc([N+](=O)[O-])c1)=NS2(=O)=O,XTT,183 µM
CC(=O)Nc1nc2c(ncn2C/C=C\CN2C(=O)c3ccccc3C2=O)c(=O)[nH]1,cell count,>50 µM
Cc1ccc(NC(C#N)c2ccc(OCc3c(Cl)cccc3Cl)cc2)cc1,absorbance,16.8 µM
C=C(C)[C@@H]1CC[C@]2(C(=O)NCCCCCCCC(=O)N[C@@H](CC(C)C)[C@H](O)CC(=O)O)CC[C@]3(C)[C@H](CC[C@@H]4[C@@]5(C)CC[C@H](O)C(C)(C)[C@@H]5CC[C@]43C)[C@@H]12,,>3 µM
O=C(N/N=C/c1ccc(O)cc1)Nc1cccc2nsnc12,ATP,26.6 µM
CCCCc1ccc(CN2CCN(Cc3c(O)cc4c(c3O)-c3cc(ccc3O)[C@H]3NC(=O)[C@@H]5NC(=O)[C@H]6NC(=O)[C@@H](Cc7ccc(cc7)Oc7cc5cc(c7O[C@@H]5O[C@H](C(=O)O)[C@@H](O)[C@H](O)[C@H]5N)Oc5ccc(cc5Cl)[C@@H](O)[C@H](NC3=O)C(=O)N[C@@H]4C(=O)O)NC(=O)[C@H](NC)c3ccc(O)c(c3)Oc3cc(O)c(Cl)c6c3)CC2)cc1,cell count,106 µM
COc1ccc(C)cc1CSc1cccc[n+]1[O-],cell count,31 µg/mL
C/C(=N\NC(=O)CN1c2c(-c3ccccc3)n[nH]c2-c2ccccc2S1(=O)=O)c1ccc2c(c1)OCCO2,MTS,23.9 µM
O=S(=O)(Cc1cccc(F)c1)c1cccc[n+]1[O-],cell count,19 µg/mL
Cc1ccc2nc(Cl)c(/C=C/C(=O)c3cccc4ccccc34)cc2c1,MTS,16.7 µM
O=C(COC(=O)c1c2c(nc3ccccc13)/C(=C\c1ccco1)CCC2)NCCN1C(=O)CSC1=O,propidium iodide,>25 µM